A mixed list of measured activities; the numbers were collected in NIAID ChemDB.

All rows: host cell toxicity; cell line: Huh7; measure: CC50

CCn is the concentration with n% toxicity to the cells. Blank or dashed fields: not listed here. Conditions beyond the fields shown may differ between rows. a–b is a range or a potency band.

SMILES | read by | value
CCOc1nc(N)nc2ccc(-c3cccc(NS(C)(=O)=O)c3)nc12 | - | >20 µM
CC(C)c1ccc(Nc2s[nH]c(=O)c2C#N)cc1 | - | <50 µM
CC(C)(C)C(=O)OCOP(=O)(CC[C@H]1O[C@@H](n2cnc3c(=O)[nH]c(N)nc32)[C@](C)(F)[C@@H]1O)OCOC(=O)C(C)(C)C | absorbance | >10 µM
CCOc1nc(NCc2ccc(F)cc2)nc2ncc(-c3ccc(F)cc3)nc12 | ATP | >20 µM
Nc1nc(N2CCOCC2)c2nc(-c3ccc(OC(F)(F)F)cc3)cnc2n1 | - | 10–20 µM
COc1ccc(-c2cnc3nc(N)nc(N4CCN(CC(=O)N(C)c5ccccc5)CC4)c3n2)cc1OC | ATP | <10 µM
CC(=O)N(C)[C@@H](C(=O)N1CCC[C@H]1C(=O)Nc1ccc(C#Cc2ccc(NC(=O)[C@@H]3CCCN3C(=O)[C@@H](c3ccccc3)N(C)C(C)=O)cc2)cc1)c1ccccc1 | resazurin | >10 µM
CCC(=O)Nc1ccc(-c2ccc3nc(N)nc(OCCOC)c3n2)cc1 | - | >20 µM
COc1ccc(-c2cnc3nc(N)nc(N4CCN(C(=O)COc5ccccc5)CC4)c3n2)cc1OC | ATP | >20 µM
CCOc1nc(N)nc2ccc(-c3cccc(NS(=O)(=O)c4c(C)noc4C)c3)nc12 | - | >20 µM
CC(=O)N[C@@H](C(=O)N1CCC[C@H]1C(=O)Nc1ccc(C#Cc2ccc(NC(=O)[C@@H]3CCCN3C(=O)[C@H](NC(C)=O)c3ccccc3)cc2)cc1)c1ccccc1 | resazurin | >10 µM
N#Cc1c(NC2CCCCC2)s[nH]c1=O | - | >50 µM
COc1cccc2c(C(=O)N3CCC[C@H]3C(=O)Nc3ccc(/C=C/c4ccc(NC(=O)[C@@H]5CCCN5C(=O)c5nc(Cl)cc6c(OC)cccc56)cc4)cc3)nc(Cl)cc12 | resazurin | >10 µM
Cc1ccc(Sc2ccccc2)c(Nc2ncnc3nc(C4CCC4)ccc23)c1 | MTT | 3.6 µM
CC(C)Oc1nc(N)nc2ccc(-c3ccc(C(=O)NC4CC4)cc3)nc12 | - | >20 µM
Cc1cccc(C)c1Sc1ccc(Nc2s[nH]c(=O)c2C#N)cc1 | - | <50 µM
CCOc1nc(N)nc2ccc(-c3cccc(NS(=O)(=O)c4cn(C)cn4)c3)nc12 | - | >20 µM
Cc1ccc(Sc2ccc(O)cc2)c(Nc2ncnc3nc(Oc4ccccc4)ncc23)c1 | MTT | 17.1 µM
Nc1nc(N2CCOCC2)c2nc(-c3ccn[nH]3)cnc2n1 | - | >20 µM
CCCc1ccc2c(Nc3cc(C)ccc3Sc3ccc(O)cc3)ncnc2n1 | MTT | 31.1 µM
O=C(Nc1ccc(/C=C/c2ccc(NC(=O)[C@@H]3CCCN3C(=O)c3nccc4ccccc34)cc2)cc1)[C@@H]1CCCN1C(=O)c1nccc2ccccc12 | resazurin | >10 µM
COC(=O)c1cccc(Nc2s[nH]c(=O)c2C#N)c1 | - | >50 µM
Cc1ccc(Sc2ccc(F)cc2)c(Nc2ncnc3nc(C)ccc23)c1 | MTT | 6.1 µM
Cc1ccccc1C(Nc1s[nH]c(=O)c1C#N)c1ccc(F)cc1C | - | >50 µM
Nc1nc(N2CCOCC2)c2nc(-c3cccc(F)c3F)cnc2n1 | - | >20 µM
N#Cc1c(Nc2ccc(Cl)cc2Cl)s[nH]c1=O | - | >50 µM
Nc1ncnc2c1ncn2[C@@H]1C[C@H](CO)[C@@H](O)[C@]1(O)CO | - | 24.7 µg/mL
CCOc1nc(N)nc2ccc(-c3ccc(NC(=O)[C@@H](N)CO)cc3)nc12 | - | >20 µM
COc1ccc(Sc2ccc(C)cc2Nc2ncnc3nc(C)ccc23)cc1 | MTT | 28.6 µM
COc1ccc(-c2cnc3nc(N)nc(N4CCN(C(=O)Nc5cccc(C)c5)CC4)c3n2)cc1OC | ATP | <10 µM
CC(C)(O)CCOc1nc(N)nc2ncc(-c3ccc(F)cc3)nc12 | - | >20 µM
COc1ccc(-c2cnc3nc(N)nc(N4CCN(CC(=O)N5CCCC5)CC4)c3n2)cc1OC | ATP | 10–20 µM
CCOc1nc(N)nc2ccc(-c3ccc(NS(C)(=O)=O)cc3)nc12 | - | >20 µM
CC(C)(C)C(=O)OCOP(=O)(CC[C@H]1O[C@@H](n2cnc3c(N)nc(N)nc32)[C@](C)(F)[C@@H]1O)OCOC(=O)C(C)(C)C | absorbance | >10 µM
COc1cccc(Nc2s[nH]c(=O)c2C#N)c1 | - | >50 µM
CS(=O)(=O)CCNc1nc(N)nc2ccc(-c3ccc(C(=O)NC4CC4)cc3)nc12 | - | >20 µM
COc1ccc(-c2cnc3nc(N)nc(N4CCN(C(=O)Nc5cccc(Cl)c5)CC4)c3n2)cc1OC | ATP | <10 µM
Cc1ccc(Sc2ccc(O)cc2)c(Nc2ncnc3nc(C4CCCCC4)ccc23)c1 | MTT | >3.12 µM
CN(C)[C@](C)(C(=O)N1CCC[C@H]1C(=O)Nc1ccc(C#Cc2ccc(NC(=O)[C@@H]3CCCN3C(=O)[C@](C)(c3ccccc3)N(C)C)cc2)cc1)c1ccccc1 | resazurin | 2.13 µM
N#Cc1cccc(-c2cnc3nc(N)nc(N4CCOCC4)c3n2)c1 | - | >20 µM
N[C@@H](C(=O)N1CCC[C@H]1C(=O)Nc1ccc(C#Cc2ccc(NC(=O)[C@@H]3CCCN3C(=O)[C@H](N)c3ccccc3)cc2)cc1)c1ccccc1 | resazurin | 9.8 µM
COC(=O)Nc1ccc(-c2ccc3nc(N)nc(NCCS(C)(=O)=O)c3n2)cc1 | - | 10–20 µM
COc1ccc(-c2cnc3nc(N)nc(N4CCN(C(=O)Nc5cccs5)CC4)c3n2)cc1OC | ATP | <10 µM
CN1CCN([C@H](C(=O)N2CCC[C@H]2C(=O)Nc2ccc(C#Cc3ccc(NC(=O)[C@@H]4CCCN4C(=O)[C@H](c4ccccc4)N4CCN(C)CC4)cc3)cc2)c2ccccc2)CC1 | resazurin | 2.84 µM
Nc1nc(N2CCOCC2)c2nc(-c3cccc(Cl)c3Cl)cnc2n1 | - | >20 µM
COc1ccc(OC(=O)N2CCN(c3nc(N)nc4ncc(-c5ccc(OC)c(OC)c5)nc34)CC2)cc1 | ATP | <10 µM

The last 6 rows once more:

SMILES | read by | value
N[C@@H](C(=O)N1CCC[C@H]1C(=O)Nc1ccc(C#Cc2ccc(NC(=O)[C@@H]3CCCN3C(=O)[C@H](N)c3ccccc3)cc2)cc1)c1ccccc1 | resazurin | 9.8 µM
COC(=O)Nc1ccc(-c2ccc3nc(N)nc(NCCS(C)(=O)=O)c3n2)cc1 | - | 10–20 µM
COc1ccc(-c2cnc3nc(N)nc(N4CCN(C(=O)Nc5cccs5)CC4)c3n2)cc1OC | ATP | <10 µM
CN1CCN([C@H](C(=O)N2CCC[C@H]2C(=O)Nc2ccc(C#Cc3ccc(NC(=O)[C@@H]4CCCN4C(=O)[C@H](c4ccccc4)N4CCN(C)CC4)cc3)cc2)c2ccccc2)CC1 | resazurin | 2.84 µM
Nc1nc(N2CCOCC2)c2nc(-c3cccc(Cl)c3Cl)cnc2n1 | - | >20 µM
COc1ccc(OC(=O)N2CCN(c3nc(N)nc4ncc(-c5ccc(OC)c(OC)c5)nc34)CC2)cc1 | ATP | <10 µM